Laboratory results from article PMC6288124.
Tags and fusion partners may be left off the protein sequences shown.

Biological target: T1, SsrBc (C-terminal domain of SsrB) (UniProt Q7CQM5)
T1 sequence (looked up, limits assumed): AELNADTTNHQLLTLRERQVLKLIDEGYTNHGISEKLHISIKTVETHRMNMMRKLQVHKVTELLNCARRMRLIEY
Assay: EMSA
Settings: recombinant protein, protein details: N-terminal His6, label: none (ethidium bromide stain), probe letters rebuilt from the primers and the genome

| Sequence | binding result (positive control, argS promoter as competitor) | binding result (argS promoter as competitor in same lane, shift at about the same molar ratio as PsseA) |
| --- | --- | --- |
| CGATGAGCTCACGGCAAGTTACAGGATCCGCAGCAATATCAGCAAAACACCTTATTGCTTGAAGCGATCGAGCAGGCCGAAAATATCATCAACATTATTTATTATCGTTACCATAACAGCGCACTTGTAGTGAGTGAGCAAGAGTAAAGTAAAAATATCTTAGAGCCTATCCCACCAGGCGTTAATTGGCGCAGCCAGTTTGGACACGGATAGCGCGCAAAAACCGCAGCGTACACGTAGTACGTGAGGTTTGACTCGCTACGCTCGCCCTTCGGGCCGCCGCTAGCGGCGTTCAAAACGCTAACGCGTTTTGGCGAGCACTGCCCAGGTTCAAAATGGCAAGTAAAATAGCCCTAATGGGATAGGCTCTTAGTTAGCACGTTAATTATCTATCGTGTATATGGAGGGGAGGTACCGGC (double strand) [PsseA] | binds |  |
| GCAGAGCTCTGGCCGTATGCAGCGCGCCGGGATTCGGAGAGCTTCCGGTACGTCTGATCTCGCCACAAGAGGTCGGGGTAGAGCATCGGGGAAAAGGGCGCAATCAGCGCCTGGTGCATAACATCCTTCCTGATAGCCAGCTCGCCGACAGCCTGCTAGTCGTTGAAGTGTACACTAATGAAGGCGATACCAGCTCCTGGCCCGCGCACAAGCACGATACGGCAGTTGAAGGCCAGGAGACCTATCTGGAAGAGACGTACTATCACCGTTTCAATCCACCTCAGGGATTCTGCTTACAGCGCGTCTACACCGACGATCGCAGCCTGGATGAATGTATGGCGGTCTATAACCGGGATGTAGTGAAAGTACCTAAGGGCTACCACCCGGTTGCCACCATCGCGGGTTACGATAACTACTATCTGAACGTGATGGCCGGCCCGCTACGAAAATGGCGTTTCACCTGGGAAGAGAACCACGCGTGGATTAACTCACCAGACTACCCGCGATAAGGTACCCCG (double strand) [PrssR (PSTnc2160)] |  | binds |
